Results taken from publication PMC4658428 (Frontiers in Microbiology, 2015).

Assays:
[1] = biological target: LdtR E33A (Liberibacter asiaticus)
[2] = biological target: LdtR F64A (Liberibacter asiaticus)
[3] = biological target: LdtR L61A (Liberibacter asiaticus)
[4] = biological target: LdtR N65A (Liberibacter asiaticus)
[5] = biological target: LdtR R30A (Liberibacter asiaticus)
[6] = biological target: LdtR R34A (Liberibacter asiaticus)
[7] = biological target: LdtR R37A (Liberibacter asiaticus)
[8] = biological target: LdtR T43A (Liberibacter asiaticus)
[9] = biological target: LdtR V26A (Liberibacter asiaticus)
[10] = biological target: LdtR Y81A (Liberibacter asiaticus)
[11] = biological target: LdtR Y82A (Liberibacter asiaticus)
[12] = biological target: LdtR Y131A (Liberibacter asiaticus)
[13] = test system: LdtR F64A (Liberibacter asiaticus); experiment: EMSA
[14] = test system: LdtR T43A (Liberibacter asiaticus); experiment: EMSA
[15] = test system: LdtR N65A (Liberibacter asiaticus); experiment: EMSA
[16] = test system: LdtR L61A (Liberibacter asiaticus); experiment: EMSA
[17] = test system: LdtR R30A (Liberibacter asiaticus); experiment: EMSA
[18] = test system: LdtR Y131A (Liberibacter asiaticus); experiment: EMSA

LdtR E33A showed a stoichiometry N [1] of 2.

LdtR F64A gave a stoichiometry N [2] of 2.

LdtR L61A was tested, and the stoichiometry N [3] was 2.

Substance LdtR N65A has a stoichiometry N [4] of 2.

LdtR R30A was tested, and the stoichiometry N [5] was 2.

With LdtR R34A the stoichiometry N [6] was 2.

LdtR R37A showed a stoichiometry N [7] of 2.

With LdtR T43A the stoichiometry N [8] was 2.

In the case of LdtR V26A, the stoichiometry N [9] was 2.

LdtR Y81A was tested, and the stoichiometry N [10] was 2.

In the case of LdtR Y82A, the stoichiometry N [11] was 2.

For LdtR Y131A, the stoichiometry N [12] was 2.

PldtP gave a K half [13] of 400 nM, a K half [14] of 400 nM and a K half [15] of 400 nM. For the same substance, the K half [16] was 400 nM, the K half [17] was 400 nM and the K half [18] was 400 nM.
